# Tests used:
# RSV A2 [1] = test: RSV F-protein cell-based ELISA on RSV A2-infected BEAS-2B cells; set-up: species or system respiratory syncytial virus; settings: read-out: F-Protein [BEAS2B] IC50; RSV A2 MOI 0.01, day 3 post-infection, compound applied just after infection, no washout
# RSV A2 [2] = test: CPE assay, RSV A2 in HEp-2 cells (resazurin); type: cell-based, respiratory syncytial virus; settings: read-out: RSV A IC50, RSV A2 0.2 MOI, 5 days
# HEp-2 cells = test: Cell viability in HEp-2 cells (resazurin); type: cell-based, Human; settings: read-out: Cytotoxicity CC50, 5 or 6 days
# RSV B Washington (WST) = test: CPE assay, RSV B Washington (WST) in HEp-2 cells (resazurin); type: cell-based, respiratory syncytial virus; settings: read-out: RSV B IC50, RSVB WST 0.2 MOI, 6 days
smiles,measurement,setting,value
O=C(NC1CC1)c1cc2c(s1)-c1ccccc1N(C(=O)c1ccc(NC(=O)c3cccnc3N3CCC4(CC3)COC4)cc1)CC2,IC50,RSV A2 [1],3.2 nM
same,IC50,RSV A2 [2],26.4 nM
same,CC50,HEp-2 cells,> 15800 nM
same,IC50,RSV B Washington (WST),> 1580 nM
